Data reported in patent US12594292B2, “Antiviral prodrugs, intermediate-and long-acting formulations and methods” (priority 2022, dated 2026).

Experiment: 3 month (105 day) study of monthly IM injections of ODE-Bn-TFV in formulation F3 in rats
Conditions: 3 monthly IM doses at 0, 30 and 60 days

Substance: Octadecyloxyethyl benzyl tenofovir [ODE-Bn-TFV]
- time therapeutic levels were maintained: 105 days
